Compound potency records, mixed from different reports. Data source: NIAID ChemDB in PubChem.

All rows: enzyme or target tests; species: HIV; protein: Reverse transcriptase

Conditions beyond the fields shown may differ between rows. An empty or dashed field is not shown. Fold resistance: result on the changed form divided by that on wild type. Inhibition is in % at the dose shown (toxicity tests: loss of growth or viability). ICn: concentration for n% inhibition.

compound	mutations	read by	read-out	dose	value
c1ccc(C2SCc3nc4ccccc4n32)cc1	RT-K103N Y188L	-	fold resistance	-	>2
Nc1ncnc2c1ncn2[C@H]1CC[C@@H](COP(=O)(O)OP(=O)(O)OP(=O)(O)O)O1	-	-	Ki	-	0.021 µM
Cc1cn([C@@H]2O[C@H](CO[Si](C)(C)C(C)(C)C)C3(OS(=O)(=O)C=C3N)[C@H]2O[Si](C)(C)C(C)(C)C)c(=O)n(C)c1=O	RT-N137E	nucleotide incorporation / radiometric	fold resistance	-	1.1
CO[P@](=O)(c1cc(C)cc(/C=C/C#N)c1)c1c(C(N)=O)[nH]c2ccc(Cl)cc12	M184V	-	IC50	-	0.17 µM
Cc1cn([C@@H]2O[C@H](CO[Si](C)(C)C(C)(C)C)[C@@]3(OS(=O)(=O)C=C3N)[C@H]2O[Si](C)(C)C(C)(C)C)c(=O)[nH]c1=O	RT-E138K	nucleotide incorporation	inhibition	150 µM	30%
Cc1cn([C@H]2C=C[C@@H](COP(=O)(O)OP(=O)(O)OP(=O)(O)O)O2)c(=O)[nH]c1=O	RT-N137Y	nucleotide incorporation / radiometric	fold resistance	-	13.7
Cc1cn([C@H]2C=C[C@@H](COP(=O)(O)OP(=O)(O)OP(=O)(O)O)O2)c(=O)[nH]c1=O	-	-	Ki	-	0.06 µM
Cc1c(C(C)c2c(F)cccc2F)nc(NC2CCCC2)[nH]c1=O	RT-V106A	nucleotide incorporation / radiometric	IC50	-	0.5 µM
Nc1nc2c(ncn2[C@H]2CC[C@@H](COP(=O)(O)OP(=O)(O)OP(=O)(O)O)O2)c(=O)[nH]1	RT-E138K	nucleotide incorporation	fold resistance	-	7.61
Nc1nc(=O)n([C@H]2CS[C@@H](COP(=O)(O)OP(=O)(O)OP(=O)(O)O)O2)cc1F	-	-	Ki	-	1.2 µM
COc1ccc2c(c1)N(C(=O)OC(C)C)[C@@H](CSC)C(=S)N2	RT-V106A P225H	RT activity	Ki	-	0.028 µM
COc1ccc2c(c1)N(C(=O)OC(C)C)[C@@H](CSC)C(=S)N2	RT-D67N K70R T215F K219Q K103N	RT activity	fold resistance	-	12.8
CC(C)Nc1cccnc1N1CCN(C(=O)c2cc3ccccc3[nH]2)CC1	RT-Y181C	nucleotide incorporation	fold resistance	-	38.1
CC(C)=CCOc1cc(NC(=S)c2ccoc2C)ccc1Cl	RT-N137Y	nucleotide incorporation / radiometric	IC50	-	0.02 µM
Nc1ccn([C@@H]2CS[C@H](COP(=O)(O)OP(=O)(O)OP(=O)(O)O)O2)c(=O)n1	-	-	Ki	-	2 µM
Cc1cn([C@@H]2O[C@H](CO[Si](C)(C)C(C)(C)C)C3(OS(=O)(=O)C=C3N)[C@H]2O[Si](C)(C)C(C)(C)C)c(=O)n(C)c1=O	RT-Y181I	nucleotide incorporation	fold resistance	-	>183
NS(=O)(=O)c1ccc(CCNC(=O)Cc2cccs2)cc1	-	nucleotide incorporation	IC50	-	1.2 µM

For reference, 2 entries again:

| compound | mutations | read by | read-out | dose | value |
|---|---|---|---|---|---|
| COc1ccc2c(c1)N(C(=O)OC(C)C)[C@@H](CSC)C(=S)N2 | RT-D67N K70R T215F K219Q K103N | RT activity | fold resistance | - | 12.8 |
| Cc1cn([C@H]2C=C[C@@H](COP(=O)(O)OP(=O)(O)OP(=O)(O)O)O2)c(=O)[nH]c1=O | RT-N137Y | nucleotide incorporation / radiometric | fold resistance | - | 13.7 |